Structures can show the parent of a compound that is named as a salt.
System: Klebsiella pneumoniae
Experiment: MIC, recent Enterobacteriaceae clinical isolates: Klebsiella pneumoniae (Examples 7, 11)
Conditions: N 20

Question: Which MIC range does the source give for `CC1=C[C@@H]2CN(C(=O)N2OS(=O)(=O)O)[C@@H]1C(N)=O` [Compound 1, (2S,5R)-2-carbamoyl-3-methyl-7-oxo-1,6-diazabicyclo[3.2.1]oct-3-en-6-yl hydrogen sulfate] here?
Answer: 0.25 to 8 mg/L

Reference: patent publication US10376499B2, “Combination therapy for treatment of resistant bacterial infections” (priority 2014, dated 2019)
